In patent US20090104178A1:

Target: hCL1 (Homo sapiens)

**Q.** For “Purified recombinant full-length VaV CrmB protein”, which Kd is on record?
**A.** Its Kd is 28.8 nM.
